Measured values from several laboratories, pooled; numbers as filed in NIAID ChemDB.

All rows: whole-cell or culture tests; species: Human cytomegalovirus; method: plaque count; measure: EC50

ECn: concentration that inhibits the pathogen or its effect by n%. Two numbers with a dash give a range or band. An empty or dashed field is not shown. Rows are shuffled and stem from different studies.

smiles,strain,cell line,result
Nc1nc2c(ncn2[C@H]2C=C[C@@H](CO)CC2)c(=O)[nH]1,LY9990,HEL,0.79 µg/mL
NC(=S)c1c(N)n(COC(CO)CO)c2ncnc(N)c12,,HFF,>100 µM
O=c1ccn([C@H]2C[C@H](O)[C@@H](CO)O2)c(=S)[nH]1,AD169,MRC-5,>412 µM
NC(=O)c1c(N)n(COCCO)c2ncnc(N)c12,,HFF,>100 µM
Nc1nc(Cl)nc2c1ncn2/C=C1\CC1CO,TOWNE,HFF,>100 µM
Nc1ncnc2c1c(Br)cn2COCCO,TOWNE,HFF,3.9 µM
NC(=O)c1cn([C@@H]2O[C@H](CO)C[C@H]2O)c2ncnc(N)c12,,HFF,32 µM
OCC1OC(n2c(NC3CC3)nc3nc4cc(Cl)c(Cl)cc4nc32)C(O)C1O,TOWNE,KB,32 µM
N#Cc1c(N)n(COCCO)c2ncnc(N)c12,,HFF,32 µM
C=C[C@H]1C[C@@H](n2cnc3c(N)ncnc32)[C@H](O)[C@@H]1O,DAVIS (20 PFU),HEL,4 µg/mL
NC(=O)c1cn([C@@H]2O[C@H](CO)[C@H](O)[C@H]2O)c2ncnc(N)c12,,HFF,29 µM
Cn1cnc2nc(NCCO)nc(NCc3ccccc3)c21,TOWNE,HFF,>100 µM
Nc1ccn(C[C@@H](CO)OCP(=O)(O)O)c(=O)n1,2 strains,HEL,0.08 µg/mL
O=C(NCCc1c[nH]c2ccccc12)C1=Cc2ccncc2CC1,P8,MRC-5,0.3 µM
N#Cc1c(Br)n(COC(CO)CO)c2ncnc(N)c12,,HFF,>100 µM
C[C@H](O)C1=C[C@@H](n2cnc3c(N)ncnc32)[C@H](O)[C@@H]1O,AD-169 (20 PFU),HEL,14.6 µg/mL
O=c1[nH]cnc2c1ncn2CC(CO)OCP(=O)(O)O,2 strains,HEL,100 µg/mL
O=c1[nH]c(=S)n([C@@H]2O[C@H](CO)[C@@H](O)[C@@H]2O)cc1Br,AD169,MRC-5,>295 µM
NC(=S)c1c(N)n([C@@H]2O[C@H](CO)[C@@H](O)[C@H]2O)c2ncnc(N)c12,,HFF,0.4 µM
CC1(C)OC[C@]2(C)[C@@H](CC[C@@]3(C)[C@H]2CC[C@H]2C[C@@H]4[C@H](O)C23CCC42OC(C)(C)O2)O1,,HFF,>500 µM
NC(=S)c1c(N)n(COCCO)c2ncnc(N)c12,,HFF,>100 µM
Nc1ccn(C[C@@H](CO)OCP(=O)(O)O)c(=O)n1,AD169,MRC-5,0.5 µM
CC(=O)OC[C@@]1(O)CCC23C[C@H]1C[C@@H]2CC[C@@H]1[C@]3(C)CCC(=O)[C@@]1(C)COS(=O)(=O)c1ccc(C)cc1,,HFF,>500 µM
Nc1ncnc2c1c(I)cn2[C@@H]1O[C@H](CO)[C@@H](O)[C@H]1O,,HFF,0.5 µM
COC(=O)C(C)NOP(OC[C@H]1C/C1=C/n1cnc2c(N)[nH]c(=O)nc21)Oc1ccccc1,TOWNE,HFF,>100 µM
Nc1nccc2c1ncn2C(C=O)OC(C=O)CO,DAVIS (20 PFU),HEL,0.25 µg/mL
N#Cc1cn(COC(CO)CO)c2ncnc(N)c12,,HFF,>320 µM
C[C@H]1[C@@H](OC(=O)CCC(=O)O)O[C@@H]2O[C@@]3(C)CC[C@H]4[C@H](C)CC[C@@H]1[C@@]24OO3,AD169,MRC-5,1.96 µM
COC(=O)[C@H](C)NP(=O)(OC[C@H]1C/C1=C/n1cnc2c(OC)nc(N)nc21)Oc1ccccc1,AD169,HFF,4.5 µM
O=c1ccn(CC(CO)OCP(=O)(O)O)c(=O)[nH]1,2 strains,HEL,25 µg/mL
N=C(N)c1cn([C@@H]2O[C@H](CO)[C@@H](O)[C@@H]2O)c2ncnc(N)c12,AD169,MRC-5,35 µM
COC(=O)[C@H](C)NP(=O)(OC[C@H]1C/C1=C\n1cnc2c(N)nc(N)nc21)Oc1ccccc1,TOWNE,HFF,>100 µM
N#Cc1c(N)n(Cc2ccc(Br)cc2)c2ncnc(N)c12,TOWNE,HFF,0.17 µM
Cn1c2ccccc2c2c3c(c4c5ccccc5n(CCC#N)c4c21)CNC3=O,AD169,HEF,0.04 µM
Cc1cn([C@H]2C[C@H](O)[C@@H](CO)O2)c(=O)[nH]c1=O,AD169,MRC-5,>385 µM
CC(C)COC(=O)C(O)Cn1cnc2c(N)ncnc21,AD-169 (20 PFU),HEL,11.75 µg/mL
COC(=O)[C@]1(O)C[C@@H]2O[C@@]1(C)n1c3ccccc3c3c4c(c5c6ccccc6n2c5c31)C(=O)NC4,Isolate 6,HEF,0.02 µM
Nc1ncnc2c1ccn2[C@H]1C=C[C@@H](CO)O1,,HFF,>100 µM
Cc1cn(CC(CO)OCP(=O)(O)O)c(=O)[nH]c1=O,2 strains,HEL,100 µg/mL
N=C(N)c1cn([C@H]2C[C@H](O)[C@@H](CO)O2)c2ncnc(N)c12,AD169,MRC-5,5 µM
CCCC/C(O)=C(\C#N)C(=O)Nc1ccc(C(F)(F)F)cc1,MAJOR,HEL 299,830–1090 µM
Nc1[nH]c(=O)nc2c1ncn2/C=C1/C[C@H]1CO,TOWNE,HFF,>100 µM
CC1(C)CCC[C@@]2(C)[C@H]1CC[C@H]1C[C@@H]3CC12CC[C@]3(O)CO,,HFF,>500 µM
NC(=O)c1c(Br)n(COC(CO)CO)c2ncnc(N)c12,,HFF,>100 µM
OCC1OC(n2cnc3nc4cc(Cl)c(Cl)cc4nc32)C(O)C1O,TOWNE,HFF,32 µM
Nc1nc(NC2CC2)c2ncn(C=C3CC3CO)c2n1,AD169,HFF,2.4 µM
NC(=O)c1cn([C@H]2C[C@H](O)[C@@H](CO)O2)c2ncnc(N)c12,AD169,MRC-5,0.6 µM
Cc1ccc(S(=O)(=O)OC[C@@]2(O)CCC34C[C@H]2C[C@@H]3CC[C@H]2[C@](C)(CO)[C@H](O)CC[C@@]24C)cc1,,,1.1 µM
Nc1ncnc2c1ncn2C[C@H]1COP(=O)(O)CO1,2 strains,HEL,0.1 µg/mL
Nc1nc2c(ncn2[C@@H]2C=C[C@H](CO)CC2)c(=O)[nH]1,AD169,HEL,0.47 µg/mL
C[C@@]1(CO)[C@H](O)CC[C@@]2(C)[C@H]1CC[C@H]1C[C@@H]3CC12CC1O[C@]13C,,HFF,>500 µM
O=c1[nH]c(=S)n([C@@H]2O[C@H](CO)[C@@H](O)[C@@H]2O)cc1Cl,AD169,MRC-5,>340 µM
Nc1ncnc2c1c(Br)cn2[C@H]1C[C@H](O)[C@@H](CO)O1,,HFF,6 µM
COC(=O)[C@H](C)NP(=O)(OC[C@H]1C/C1=C\n1cnc2c(=O)[nH]c(N)nc21)Oc1ccccc1,TOWNE,HFF,>100 µM
Nc1nc2c(ncn2COC(CO)CO)c(=O)[nH]1,AD169,HEF,3.8 µM
CC1(C)OC[C@]2(C)[C@@H](CC[C@@]3(C)[C@H]2CC[C@H]2C[C@@H]4CC23CC[C@]4(O)CO)O1,,HFF,>500 µM
OC[C@H]1O[C@@H](n2c(Cl)nc3cc(Cl)c(Cl)cc32)[C@H](O)[C@@H]1O,TOWNE,KB,2.9 µM
C[C@]1(CO)C2CCC3CC4CC3(CC[C@]4(O)CO)[C@@]2(C)CC[C@H]1O,,HFF,>500 µM
Nc1ncnc2c1ncn2C[C@@H](CO)OCP(=O)(O)O,2 strains,HEL,0.15 µg/mL

5 of the rows above, restated:

O=c1ccn(CC(CO)OCP(=O)(O)O)c(=O)[nH]1 ; strain: 2 strains ; cell line: HEL ; result: 25 µg/mL
OCC1OC(n2c(NC3CC3)nc3nc4cc(Cl)c(Cl)cc4nc32)C(O)C1O ; strain: TOWNE ; cell line: KB ; result: 32 µM
Nc1ncnc2c1c(Br)cn2COCCO ; strain: TOWNE ; cell line: HFF ; result: 3.9 µM
Cc1cn(CC(CO)OCP(=O)(O)O)c(=O)[nH]c1=O ; strain: 2 strains ; cell line: HEL ; result: 100 µg/mL
OCC1OC(n2cnc3nc4cc(Cl)c(Cl)cc4nc32)C(O)C1O ; strain: TOWNE ; cell line: HFF ; result: 32 µM